Article PMC6600592, “Design, Synthesis, and Bioactive Screen In Vitro of Cyclohexyl (E)-4-(Hydroxyimino)-4-Phenylbutanoates and Their Ethers for Anti-Hepatitis B Virus Agents” (Molecules, 2019)

Tests used:
[1] = tested on: HBeAg; conditions: CC50/IC50 for HBeAg, HepG 2.2.15 cells
Method: (§1) These synthesized compounds were evaluated for anti-HBV activity with referring to reported method. The HepG2.2.15 cell, a human hepatoblastoma cell line stably transfected with cloned HBV DNA, was obtained from Chinese Academy of Medical Sciences (Beijing, China), and was cultured in Dulbecco’s Modified Eagle’s Medium (DMEM) supplemented with 10% fetal bovine serum and 1.5 g/L of sodium bicarbonate, 10 mL/L of streptomycin, 10 mL/L of penicillin, and 200 mg/L of G418 at 37 °C in a 5% CO2 atmosphere with 95–98% humidity. Then, HepG2.2.15 cell was plated at a density of 1 × 10^5 cells/mL in 96-well plates and incubated at 37 °C for 24 h and then treated with variant concentration of compounds in […]; every three days, in a nine day period, C (OD) values were recorded at 450 nm. After nine days, the percent of cell death was measured using the method of MTT assay after drug treatment. Cytotoxicity of these compounds was expressed as the concentration of compound required to kill 50% (CC50) of the HepG 2.2.15 cells.
(§2) Method for the HBsAg and HBeAg Inhibition Assays. The levels of HBV surface antigen (HBsAg) and HBV e antigen (HBeAg) in the supernatant of the HepG2.2.15 cells were determined by the enzyme-linked immunosorbent assay (ELISA) according to the manufacturer’s protocol (Shanghai Kehua Biotech Co., Ltd., Shanghai, China). The synthesized compounds were expressed as the concentration that achieved 50% inhibition (IC50) to the secretion of HBsAg and HBeAg. The selectivity index (SI) was determined as the ratio of CC50 to IC50 which a major pharmaceutical parameter of estimates possible future clinical application.

[2] = tested on: HBsAg; conditions: CC50/IC50 for HBsAg, HepG 2.2.15 cells
Method: as §1, §2

| Substance | HBeAg SI (selectivity index = CC50/IC50) [1] | HBsAg SI (selectivity index = CC50/IC50) [2] |
| --- | --- | --- |
| Cyclohexyl (E)-4-hydroxyimino-4-(4-chlorophenyl)butanimidate [Compound 4D-1] | 1.06 | 1.13 |
| Cyclohexyl (E)-4-methoxyimino-4-(4-methoxyphenyl)butanoate [Compound 4B-2] | 17.34 | 13.41 |
